A mixed list of measured activities; the numbers were collected in NIAID ChemDB.

All rows: target-level tests

Inhibition is in % at the dose shown (toxicity tests: loss of growth or viability). a–b is a range or a potency band. ICn: concentration for n% inhibition. An empty or dashed field is not shown. Lines come from different laboratories, so protocols vary.

| SMILES | target | tested at | agent | measure | value |
|---|---|---|---|---|---|
| O=C(O)CCC(=O)N[C@H](C(=O)N[C@@H](CCC(=O)O)C(=O)N[C@@H](Cc1ccc2ccccc2c1)C(=O)N[C@@H](CS)C(=O)O)C(c1ccccc1)c1ccccc1 | Nonstructural protein 3 NTPase/helicase | 16.7 µM | Hepatitis C virus | inhibition | 42% |
| Cn1cccc1-c1nc2cc(C(=O)NC3(C(=O)Nc4ccc(/C=C/C(=O)O)cc4)CCCC3)ccc2n1C1C[C@H]2CC[C@@H]1C2 | NS5B polymerase | - | Hepatitis C virus | IC50 | 0.5–5 µM |
| Cc1c(S(=O)(=O)Nc2ccccc2-c2nc(C(=O)O)c(O)c(=O)[nH]2)sc2cc(Cl)ccc12 | HCV polymerase | - | Hepatitis C virus | IC50 | <100 µM |
| CC[C@@H](C=O)NC(=O)[C@@H]1C[C@@H](OCc2ccc(OC(F)(F)F)cc2)CN1C(=O)[C@@H](NC(=O)[C@@H](NC(=O)c1cnccn1)C(C)C)C(C)C | NS3 protease | - | Hepatitis C virus | Ki | 1–100 µM |
| O=C(O)CCCC(=O)N[C@H](C(=O)N[C@@H](CCC(=O)O)C(=O)N[C@@H](CCC(=O)O)C(=O)NC1(C(=O)O)CC1)C(c1ccccc1)c1ccccc1 | Nonstructural protein 3 NTPase/helicase | - | Hepatitis C virus | IC50 | >167 µM |
| CC[C@@H](C=O)NC(=O)[C@@H]1C[C@@H](OCc2ccccc2-c2ccccc2)CN1C(=O)[C@@H](NC(=O)[C@@H](NC(=O)c1cnccn1)C(C)C)C(C)C | NS3 protease | - | Hepatitis C virus | Ki | 1–100 µM |
| COc1ccc(-c2ccc(C(N)=O)cc2)c(-c2ccc3cc(-c4nc5cc(C(=O)O)ccc5n4C4CCCCC4)ccc3n2)c1 | NS5B polymerase | 33 µM | Hepatitis C virus | inhibition | 101% |
| COc1nc(NCCc2c[nH]c3ccccc23)nc(Nc2ccc3[nH]ncc3c2)n1 | DNA polymerase | 1 µg/mL | Hepatitis B virus | inhibition | 43% |
| O=C(O)CCC(=O)N[C@H](C(=O)N[C@@H](CCC(=O)O)C(=O)N[C@@H](CCC(=O)O)C(=O)NC1(C(=O)O)CC1)C1CCCCC1 | Nonstructural protein 3 NTPase/helicase | - | Hepatitis C virus | IC50 | <167 µM |
| CNC(=O)c1c(-c2ccc(F)cc2)oc2cc(N)c(OC(C)C)cc12 | Nonstructural protein 5B | - | Hepatitis C virus | IC50 | ≤0.5 µM |
| C[C@@H](NC(=O)c1ccc2c(c1)nc(-c1ccoc1)n2C1CCCCC1)C(=O)Nc1ccc2[nH]c(C(=O)O)cc2c1 | NS5B polymerase | - | Hepatitis C virus | IC50 | <0.5 µM |
| COc1nc(Nc2ccc3cn[nH]c3c2)nc(NN2CCOCC2)n1 | Nonstructural protein 5B | 10 µg/mL | Hepatitis C virus | inhibition | 60% |
| c1cc(OC2CCCC2)cc(-c2cnc3c(-c4nn[nH]n4)cnn3c2C2CCCCC2)c1 | RNA-dependent RNA polymerase | - | Hepatitis C virus | IC50 | 1–10 µM |
| CCCN(CCC)Cc1ccc2cc(-c3nc4cc(C(=O)O)ccc4n3C3CCCCC3)ccc2n1 | NS5B polymerase | 33 µM | Hepatitis C virus | inhibition | 87.01% |
| CC(C)[C@H](NC(=O)[C@@H](NC(=O)CCC(=O)O)C1CCCCC1)C(=O)N[C@@H](CCC(=O)O)C(=O)N[C@@H](CS)C(=O)O | Nonstructural protein 3 NTPase/helicase | 167 µM | Hepatitis C virus | inhibition | 68% |
| C[C@@H](NC(=O)c1ccc2c(c1)nc(-c1ccccc1)n2C1CCCCC1)C(=O)Nc1ccc(/C=C/C(=O)O)cc1 | NS5B polymerase | - | Hepatitis C virus | IC50 | 0.5–5 µM |
| CC[C@@H](C=O)NC(=O)[C@@H]1C[C@@H](OCc2ccc(C(F)(F)F)cc2)CN1C(=O)[C@@H](NC(=O)[C@@H](NC(=O)c1cnccn1)C(C)C)C(C)C | NS3 protease | - | Hepatitis C virus | Ki | 1–100 µM |
| O=C(c1ccc(-c2ccc(Cl)cc2)c(-c2ccc3cc(-c4nc5ccccc5n4C4CCCCC4)ccc3n2)c1)N1CCCC1 | NS5B polymerase | 100 µM | Hepatitis C virus | inhibition | 95.05% |
| O=C(O)CCCC(=O)N[C@H](C(=O)N[C@@H](CCC(=O)O)C(=O)N[C@@H](Cc1ccc2ccccc2c1)C(=O)N[C@@H](CS)C(=O)O)C1CCCCC1 | Nonstructural protein 3 NTPase/helicase | 1.67 µM | Hepatitis C virus | inhibition | 37% |
| CNC(=O)c1c(-c2ccc(F)cc2)oc2cc(N(C)S(C)(=O)=O)c(OCc3c(C)noc3C)cc12 | Nonstructural protein 5B | - | Hepatitis C virus | IC50 | ≤0.5 µM |
| O=C(O)c1cc2nc(-c3ccc(F)cc3)cc(-c3ccccc3Cl)n2n1 | RNA-dependent RNA polymerase | - | Hepatitis C virus | IC50 | >10 µM |
| O=C(Nc1ccccc1-c1nc(C(=O)O)c(O)c(=O)[nH]1)NC1CC1c1ccccc1 | HCV polymerase | - | Hepatitis C virus | IC50 | <100 µM |
| CNC(=O)c1c(-c2ccc(F)cc2)oc2cc(N3CCOCC3)c(OCc3cc(C)on3)cc12 | Nonstructural protein 5B | - | Hepatitis C virus | IC50 | ≤0.5 µM |
| C[C@@H](NC(=O)c1ccc2c(c1)nc(-c1ccoc1)n2C1CCCCC1)C(=O)Nc1ccc2c(c1)cc(C(=O)O)n2C | NS5B polymerase | - | Hepatitis C virus | IC50 | <0.5 µM |
| CCC(=O)N(Cc1ccc(Cl)cc1)c1cc(-c2ccccc2)sc1C(=O)O | NS3 ATPase | - | Hepatitis C virus | IC50 | <5 µM |
| COc1ccc(-c2ccc(Cl)cc2)c(-c2ccc3cc(-c4nc5cc(C(=O)O)ccc5n4C4CC(C)CC(C)(C)C4)ccc3n2)c1 | NS5B polymerase | 33 µM | Hepatitis C virus | inhibition | 101% |
| O=C(O)c1nc(-c2cccc(CS(=O)(=O)c3ccccn3)c2)[nH]c(=O)c1O | HCV polymerase | - | Hepatitis C virus | IC50 | <100 µM |
| COc1nc(Nc2ccc3[nH]ncc3c2)nc(N2CCN(CCO)CC2)n1 | DNA polymerase | - | Hepatitis B virus | IC50 | 0.1–1 µg/mL |
| CC[C@@H](C=O)NC(=O)[C@@H]1C[C@@H](OCc2ccccc2)CN1C(=O)[C@@H](NC(=O)c1cccc(O)c1C)C(C)C | NS3 protease | - | Hepatitis C virus | Ki | 1–100 µM |
| COc1cc(-c2cc(-c3ccc(OCc4ccccc4)cc3)nc3cc(C(=O)O)nn23)ccc1Cl | RNA-dependent RNA polymerase | - | Hepatitis C virus | IC50 | 1–10 µM |
| O=C(Nc1ccccc1-c1nc(C(=O)O)c(O)c(=O)[nH]1)NC1CCc2ccccc21 | HCV polymerase | - | Hepatitis C virus | IC50 | <100 µM |
| COc1cc(Br)c2oc(-c3ccc4cc(-c5nc6cc(C(=O)O)ccc6n5C5CCCCC5)ccc4n3)cc2c1 | NS5B polymerase | 100 µM | Hepatitis C virus | inhibition | 100% |
| C[C@@H]1CCCC[C@H]1n1c(-c2cccc3c2OCO3)nc2cc(C(=O)NC3(C(=O)Nc4ccc(/C=C/C(=O)O)cc4)CCCC3)ccc21 | NS5B polymerase | - | Hepatitis C virus | IC50 | 0.5–5 µM |
| CC(C)(C)c1ccc(CN(C(=O)C2CC2)c2cc(-c3ccccc3)sc2C(=O)O)cc1 | NS3 ATPase | - | Hepatitis C virus | IC50 | 5–20 µM |
| CNC(=O)c1c(-c2ccc(F)cc2)oc2cc(C(C)(C)O)c(C)cc12 | Nonstructural protein 5B | - | Hepatitis C virus | IC50 | ≤0.5 µM |
| O=C(O)c1sc(-c2ccccc2)cc1N(Cc1ccc(-c2ccc(F)c(Cl)c2)s1)C(=O)c1ccc(Cl)cc1Cl | NS3 ATPase | - | Hepatitis C virus | IC50 | <5 µM |
| COc1nc(NCCc2ccccn2)nc(Nc2ccc3[nH]ncc3c2)n1 | DNA polymerase | - | Hepatitis B virus | IC50 | 0.1–1 µg/mL |
| CCOC(=O)c1cccc(NC(=O)O[C@@H]2C[C@@H](C(=O)N[C@H](C=O)CC)N(C(=O)[C@@H](NC(=O)[C@@H](NC(=O)c3cnccn3)C(C)C)C(C)C)C2)c1 | NS3 protease | - | Hepatitis C virus | Ki | >100 µM |
| C[C@@H]1CCCC[C@H]1n1c(-c2ccc[nH]2)nc2cc(C(=O)NC3(C(=O)Nc4ccc(/C=C/C(=O)O)cc4)CCCC3)ccc21 | NS5B polymerase | - | Hepatitis C virus | IC50 | 0.5–5 µM |
| O=C(NCc1cccc(Cl)c1)Nc1ccsc1-c1nc(C(=O)O)c(O)c(=O)[nH]1 | HCV polymerase | - | Hepatitis C virus | IC50 | <25 µM |
| Cc1ccccc1S(=O)(=O)Nc1cc(/C=C/c2ccccc2)sc1C(=O)O | NS3 ATPase | - | Hepatitis C virus | IC50 | <5 µM |
| COc1ccc(-c2ccc(Cl)cc2)c(-c2ccc3cc(-c4nc5cc(C(=O)O)ccc5n4CC(C)C)ccc3n2)c1 | NS5B polymerase | 33 µM | Hepatitis C virus | inhibition | 98.17% |
| O=C(O)CCC(=O)N[C@@H](CCC(=O)O)C(=O)N[C@@H](CCC(=O)O)C(=O)N[C@@H](CS)C(=O)O | Nonstructural protein 3 NTPase/helicase | - | Hepatitis C virus | IC50 | >16.7 µM |
| c1csc(COc2ccc(-c3cnc4c(-c5nn[nH]n5)cnn4c3C3CCCCC3)cc2)c1 | RNA-dependent RNA polymerase | - | Hepatitis C virus | IC50 | 1–10 µM |
| O=C(O)c1nc(-c2ccccc2NS(=O)(=O)c2ccc(F)c(Cl)c2)[nH]c(=O)c1O | HCV polymerase | - | Hepatitis C virus | IC50 | <100 µM |
| COC(=O)c1cnn2c(-c3ccc(OCc4ccccc4)cc3)c(-c3ccccc3)cnc12 | RNA-dependent RNA polymerase | - | Hepatitis C virus | IC50 | >10 µM |
| Cc1ccccc1S(=O)(=O)Nc1cc(-c2ccoc2)sc1C(=O)O | NS3 ATPase | - | Hepatitis C virus | IC50 | <5 µM |
| O=C(O)c1cc2nc(-c3ccc(Oc4ccccc4)cc3)cc(-c3ccc(Cl)cc3)n2n1 | RNA-dependent RNA polymerase | - | Hepatitis C virus | IC50 | 1–10 µM |
| CC(C)C[C@H](NC(=O)[C@H](CCC(=O)O)NC(=O)[C@@H](NC(=O)CCC(=O)O)C1CCCCC1)C(=O)NC1(C(=O)O)CC1 | Nonstructural protein 3 NTPase/helicase | 83.5 µM | Hepatitis C virus | inhibition | 3% |
| O=C(O)c1ccc2c(c1)nc(-c1ccc3nc(-c4ccc5c(c4)CCO5)ccc3c1)n2C1CCCCC1 | NS5B polymerase | 100 µM | Hepatitis C virus | inhibition | 97.15% |
| O=C(O)/C=C/c1ccc(NC(=O)[C@@H](CCc2ccccc2)NC(=O)c2ccc3c(c2)nc(-c2ccoc2)n3C2CCCCC2)cc1 | NS5B polymerase | - | Hepatitis C virus | IC50 | 0.5–5 µM |
| CN1CCN(C(=O)c2ccc3c(c2)nc(-c2cc4ccc(-c5ccccc5-c5ccccc5)nc4cc2F)n3C2CCCCC2)CC1 | NS5B polymerase | 100 µM | Hepatitis C virus | inhibition | 74.23% |
| COc1nc(NCCO)nc(Nc2ccc3cn[nH]c3c2)n1 | DNA polymerase | 0.1 µg/mL | Hepatitis B virus | inhibition | 33% |
| O=C(O)c1cc2nc(-c3ccc(C(F)(F)F)cc3)cc(-c3ccc(Cl)cc3Cl)n2n1 | RNA-dependent RNA polymerase | - | Hepatitis C virus | IC50 | >10 µM |
| O=C(O)CCC(=O)N[C@H](C(=O)N[C@@H](CCC(=O)O)C(=O)N[C@@H](CCC(=O)O)C(=O)N[C@@H](CS)C(=O)O)C(c1ccccc1)c1ccccc1 | Nonstructural protein 3 NTPase/helicase | 167 µM | Hepatitis C virus | inhibition | 100% |
| O=C(O)/C=C/c1ccc(NC(=O)C2(NC(=O)c3ccc4c(c3)nc(-c3ccsc3)n4C3CCCCC3)CCCC2)cc1 | NS5B polymerase | - | Hepatitis C virus | IC50 | <0.5 µM |
| O=C(CC1CCCCC1)Nc1ccsc1-c1nc(C(=O)O)c(O)c(=O)[nH]1 | HCV polymerase | - | Hepatitis C virus | IC50 | <25 µM |
| O=C(O)c1cc2nc(-c3ccc(-c4ccccc4)cc3)c(C3CCCCC3)c(=O)n2[nH]1 | RNA-dependent RNA polymerase | - | Hepatitis C virus | IC50 | 1–10 µM |
| Cc1csc(C(=O)N(C)c2cc(-c3ccccc3)sc2C(=O)O)c1 | NS3 ATPase | - | Hepatitis C virus | IC50 | 5–20 µM |
| CC(C)[C@H](NC(=O)[C@@H](NC(=O)CCC(=O)O)C1CCCCC1)C(=O)N[C@@H](CCC(=O)O)C(=O)NC1(C(=O)O)CC1 | Nonstructural protein 3 NTPase/helicase | 167 µM | Hepatitis C virus | inhibition | 30% |

The first 7 rows once more:

SMILES,target,tested at,agent,measure,value
O=C(O)CCC(=O)N[C@H](C(=O)N[C@@H](CCC(=O)O)C(=O)N[C@@H](Cc1ccc2ccccc2c1)C(=O)N[C@@H](CS)C(=O)O)C(c1ccccc1)c1ccccc1,Nonstructural protein 3 NTPase/helicase,16.7 µM,Hepatitis C virus,inhibition,42%
Cn1cccc1-c1nc2cc(C(=O)NC3(C(=O)Nc4ccc(/C=C/C(=O)O)cc4)CCCC3)ccc2n1C1C[C@H]2CC[C@@H]1C2,NS5B polymerase,-,Hepatitis C virus,IC50,0.5–5 µM
Cc1c(S(=O)(=O)Nc2ccccc2-c2nc(C(=O)O)c(O)c(=O)[nH]2)sc2cc(Cl)ccc12,HCV polymerase,-,Hepatitis C virus,IC50,<100 µM
CC[C@@H](C=O)NC(=O)[C@@H]1C[C@@H](OCc2ccc(OC(F)(F)F)cc2)CN1C(=O)[C@@H](NC(=O)[C@@H](NC(=O)c1cnccn1)C(C)C)C(C)C,NS3 protease,-,Hepatitis C virus,Ki,1–100 µM
O=C(O)CCCC(=O)N[C@H](C(=O)N[C@@H](CCC(=O)O)C(=O)N[C@@H](CCC(=O)O)C(=O)NC1(C(=O)O)CC1)C(c1ccccc1)c1ccccc1,Nonstructural protein 3 NTPase/helicase,-,Hepatitis C virus,IC50,>167 µM
CC[C@@H](C=O)NC(=O)[C@@H]1C[C@@H](OCc2ccccc2-c2ccccc2)CN1C(=O)[C@@H](NC(=O)[C@@H](NC(=O)c1cnccn1)C(C)C)C(C)C,NS3 protease,-,Hepatitis C virus,Ki,1–100 µM
COc1ccc(-c2ccc(C(N)=O)cc2)c(-c2ccc3cc(-c4nc5cc(C(=O)O)ccc5n4C4CCCCC4)ccc3n2)c1,NS5B polymerase,33 µM,Hepatitis C virus,inhibition,101%